PubChem BioAssay AID1259414, Drosophila RNAi Screening Center – 2018

Aim: 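Fly genes that alter Wolbachia amount inside host cells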 (primary screen)
System: Drosophila JW18 cells infected with Wolbachia
Reagent: long dsRNA against Drosophila genes, 0.25 µg dsRNA per well of a 384-well plate
Time to read-out: 5 days
Challenge: cells persistently infected with Wolbachia before knock-down; no added drug
Read-out: 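Automated imaging of bacterial rRNA staining divided by host cell count, reported as plate-normalised robust z-score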
Direction: Wolbachia per cell robust z: higher = more Wolbachia per host cell than the plate typical
Rule for the call: 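Hit when robust z is 1.5 or more, or -1.5 or less, in at least two of three replicates; excludes dsRNAs with several or no targets, genes not expressed in JW18 and well A1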
The screen tested about 24,000 reagents; this is an unselected part of those that have a named target and a result. Of all reagents, about 1,210 (5%) were called active. 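Inactive calls also include excluded dsRNAs with several or no targets, genes unexpressed in JW18, and well A1, regardless of score.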 A number with no mark means an inactive call. Names joined by + are all predicted targets of the reagent.

What did the screen give for drosha [DRSC07607]?
Wolbachia per cell robust z, rep 1: 1.32; Wolbachia per cell robust z, rep 2: 0.0102; Wolbachia per cell robust z, rep 3: 1.79

What is on record for tomb + Cap-D3 [DRSC02347]?
Wolbachia per cell robust z, rep 1: 0.227; Wolbachia per cell robust z, rep 2: 0.629; Wolbachia per cell robust z, rep 3: 0.559

How did the screen score tomb + Cap-D3 [DRSC27851]?
Wolbachia per cell robust z, rep 1: -5.26; Wolbachia per cell robust z, rep 2: -1.07; Wolbachia per cell robust z, rep 3: -0.34

With magu [DRSC06832], what was measured?
Wolbachia per cell robust z, rep 1: -5.83 (active); Wolbachia per cell robust z, rep 2: -1.82; Wolbachia per cell robust z, rep 3: -6.05

How did the screen score CG11920 [DRSC14439]?
Wolbachia per cell robust z, rep 1: 0.776; Wolbachia per cell robust z, rep 2: 0.768; Wolbachia per cell robust z, rep 3: 1.37

For skd (skuld) [DRSC11898], how do the results read?
Wolbachia per cell robust z, rep 1: -1.32; Wolbachia per cell robust z, rep 2: -0.825; Wolbachia per cell robust z, rep 3: -0.161

What is on record for skd (skuld) [DRSC40751]?
Wolbachia per cell robust z, rep 1: 0.208; Wolbachia per cell robust z, rep 2: -0.539; Wolbachia per cell robust z, rep 3: 0.819

How did the screen score CG42819 [DRSC02264]?
Wolbachia per cell robust z, rep 1: -0.39; Wolbachia per cell robust z, rep 2: 0.729; Wolbachia per cell robust z, rep 3: -1

With CG14054 [DRSC17909], how do the results read?
Wolbachia per cell robust z, rep 1: -0.668; Wolbachia per cell robust z, rep 2: 0.632; Wolbachia per cell robust z, rep 3: -0.376

With CG15635 [DRSC00470], how do the results read?
Wolbachia per cell robust z, rep 1: -2.52; Wolbachia per cell robust z, rep 2: -3.03; Wolbachia per cell robust z, rep 3: -1.15

With CG15635 [DRSC22873], what does the deposit list?
Wolbachia per cell robust z, rep 1: -1.29; Wolbachia per cell robust z, rep 2: -1.49; Wolbachia per cell robust z, rep 3: -3.32

For sun (stunted) [DRSC20140], what was measured?
Wolbachia per cell robust z, rep 1: 0.318; Wolbachia per cell robust z, rep 2: -1.65; Wolbachia per cell robust z, rep 3: 1.06

With sun (stunted) [DRSC26284], what was measured?
Wolbachia per cell robust z, rep 1: -0.26; Wolbachia per cell robust z, rep 2: 0.099; Wolbachia per cell robust z, rep 3: -0.776

Copied from the entries so far for reference:
sun (stunted) [DRSC20140] → Wolbachia per cell robust z, rep 1: 0.318; Wolbachia per cell robust z, rep 2: -1.65; Wolbachia per cell robust z, rep 3: 1.06
sun (stunted) [DRSC26284] → Wolbachia per cell robust z, rep 1: -0.26; Wolbachia per cell robust z, rep 2: 0.099; Wolbachia per cell robust z, rep 3: -0.776

Continued:
With AIF (Apoptosis inducing factor) [DRSC00696], what was measured?
Wolbachia per cell robust z, rep 1: -0.447; Wolbachia per cell robust z, rep 2: 0.274; Wolbachia per cell robust z, rep 3: 0.865

With CycK (Cyclin K) [DRSC03714], how do the results read?
Wolbachia per cell robust z, rep 1: 0.405; Wolbachia per cell robust z, rep 2: 0.48; Wolbachia per cell robust z, rep 3: -2.92

How did the screen score CG13868 [DRSC06427]?
Wolbachia per cell robust z, rep 1: 1.49; Wolbachia per cell robust z, rep 2: 1.08; Wolbachia per cell robust z, rep 3: 0.394

For CG32845 [DRSC07867], how do the results read?
Wolbachia per cell robust z, rep 1: 0.241; Wolbachia per cell robust z, rep 2: 2.31; Wolbachia per cell robust z, rep 3: 0.45

With CG32845 [DRSC28003], what does the deposit list?
Wolbachia per cell robust z, rep 1: -3.32; Wolbachia per cell robust z, rep 2: 0.116; Wolbachia per cell robust z, rep 3: -0.943

With CG32647 [DRSC19690], what does the deposit list?
Wolbachia per cell robust z, rep 1: 0.589; Wolbachia per cell robust z, rep 2: 0.743; Wolbachia per cell robust z, rep 3: -2.8

Which result is listed for CG32647 [DRSC19878]?
Wolbachia per cell robust z, rep 1: 0.865; Wolbachia per cell robust z, rep 2: 0.124; Wolbachia per cell robust z, rep 3: -1.47

With CG6180 [DRSC02937], what was measured?
Wolbachia per cell robust z, rep 1: 0.102; Wolbachia per cell robust z, rep 2: -0.393; Wolbachia per cell robust z, rep 3: 1.01

What did the screen give for CG6180 [DRSC25726]?
Wolbachia per cell robust z, rep 1: 0.252; Wolbachia per cell robust z, rep 2: -0.363; Wolbachia per cell robust z, rep 3: 0.0912

With Hmbs (Hydroxymethylbilane synthase) [DRSC08632], what does the deposit list?
Wolbachia per cell robust z, rep 1: 0.294; Wolbachia per cell robust z, rep 2: -0.388; Wolbachia per cell robust z, rep 3: -1.53

Which result is listed for ths (thisbe) [DRSC23123]?
Wolbachia per cell robust z, rep 1: -0.858; Wolbachia per cell robust z, rep 2: -1.97; Wolbachia per cell robust z, rep 3: -1.14

For ths (thisbe) [DRSC27271], how do the results read?
Wolbachia per cell robust z, rep 1: -0.755; Wolbachia per cell robust z, rep 2: -1.15; Wolbachia per cell robust z, rep 3: -0.552
